According to the supplement of paper PMC9931576:
Human monoclonal antibodies against the spike receptor-binding domain (heavy:light variable regions). IC50 against pseudoviruses bearing the spike of naturally observed variants; lower = stronger; >10 µg/ml means not reached at the top dose. No active / inactive call. The stated detection limit is 0.0005 µg/ml; values near or below 0.001 µg/ml lie at the floor of the assay.

B1: BD55-5866 (protein)
chain 1: EVQLVESGGGLVKPGGSMRLSCAASGFSFGIYSMNWVRQAPGKGLEWVSFITSSSSYIYYADSVKGRFTISRDNAKNSLYLQMNSLRAEDAAVYYCVRDGRDLLRSFPRRDFDFWGQGTLVTVSS
chain 2: DIQMTQSPSSVSASVGDRVTITCRASQGISSWLAWYQQKPGKAPKLLIYAASSLQSGVPSRFGGSGSGTDFTLTISSLQPEDFATYYCQQANSFPRTFGQGTRLEIK
B2: BD55-5847 (protein)
chain 1: QVQLVQSGAEVKKPGASVKVSCKASGYTFTSFYIHWLRQAPGQGPEWMGMINPSGAITEYSQRFQGRVTLTRDTSTSTVYMELSSLRSEDTAVYYCARDLDAISTGFFDYWGQGTLVTVSS
chain 2: EVVMTQSPATLSVSPGERATLSCRASQSVSSNLAWYQQKPGQAPRLLIYGASTRATGIPARFSGSGSGTEFTLTVSSLQSEDFAVYYCQQYYIWPPLDTFGQGTRLEIK
B3: BD55-5906 (protein)
chain 1: QITLKESGPMVVKPTQTLTLTCTISGFSLSTTEVGVGWIRQPPGKALEWLALIYWDDDKRFSPSLKSRLTITKDSSKNQVVLTMTNMDRLDTATYYCAHSQYDFSIGFSGFDYWGPGTPVTVSS
chain 2: DIVMTQTPLSSPVTLGQPASISCRSSQSLVHSDGNAYLNWLQHRPGQPPRLLIYQISRRFSGVPDRFSGSGAGTDFTLNISRVEAEDVGVYYCMQATQFPHEMYTFGQGTKLEIK
B4: BD55-5886 (protein)
chain 1: QFQLMQSGPEVKKPGASVRVSCKASGYTFPSYGITWVRQAPGQGLEWMAWISVYNGNTNYAQKFQGRVTMTTDTSTSTVYMELRSLRSDDTAVYYCARDNGAYMDFDLRGRGTLVTVSS
chain 2: QSVLTQPPSASGTPGQRVTISCSGGSSNLGINPVNWYQQLPGTAPRLLIFSGFQRPSGVPDRFSGSQSGTSASLAISGLQPEDEADYYCAAWVDSLNGRVFGGGTKLTVL
B5: BD55-5877 (protein)
chain 1: QVQLVQSGSELKKPGASVKVSCKASGYTFTSFAMNWVRQAPGQEFEWMGWINTNTGNPTYAQGFTGRFVFSLDTSVSTAYLQITSLKTEDTAVYYCARAYMVGGLIKFWFDPWGQGTLVTVSS
chain 2: AIRMTQSPSSLSASTGDRVTITCRASQDINRYLAWYQQQPGKAPKLLIYTASTLQSGVPARFSGSGSGTDFTLTISSLQSEDFATYFCQQYFTYPLLTFGPGTKVDIK
B6: BD55-5900 (protein)
chain 1: EVQLVESGGGLVQPGGSLRLSCAASGFTFRNYAMHWVRQAPGKGLEYVSSISSNGGLTFYADSVKGRFTISRDNSKNTLYLQMGSLRPEDMAVYYCAREGGVGQQLILYLDYWGQGTPVTVSS
chain 2: DIQMTQSPSSLSASVGDRVTITCRASQTITNYLNWYQQKPGKAPRLLIYAASTLQSGVPSRFSGGGSGTAFTLTINNLQPEDFATYYCQQSYVTPMYTFGQGTKLEIK
B7: BD55-5880 (protein)
chain 1: EVYLMESGGGLVQPGGSLRLSCAASEFIVSANYMSWVRQAPGKGPEWVSLIFAGGSTFYADSVKGRFTISRDDSKNTLHLQMNSLRAEDTAVYYCARDLGGNGHFDFWGQGTLVTVSS
chain 2: DIQMTQSPSSLSASVGDRVIITCRASQSISNYLNWYQQKPGKAPKLLIYAASSLQSGVPSRFSGSGSGTDFALTISSLQPEDFATYYCQQSYSAPYTFGQGNKLEIK
B8: BD55-5914 (protein)
chain 1: QVQLVQSGAEVKKPGASVKVSCKASGYTFANYDIIWVRQANGQGLEWMGWLNPNTGATGYAHKFQGRVTMTRDTSTNIVYMELSSLSSDDSAVYYCAREVVVLPEAARRFDSWGQGTLVTVSS
chain 2: DVQMTQSPSSLSASIGDRVTLTCRASQSITTYLNWYQQRPGKAPKLLIYAASTLQSGVPSRFSGSGSGTDFTLTISSLQREDFATYYCQQSYSTSYSFGQGTKVEIK
B9: BD55-5901 (protein)
chain 1: EVQLVESGGALIQPGGSLRLSCAASGFTVSDSYMSWVRQAPGKGLEWVSVIYRGGNTYYADSVWGRFTISRDDSKNTLNLQMNRLRAEDTAMYYCARRYRTSWGLDSWGQGTLVSVSS
chain 2: QSALTQPPSASGSPGQSVTISCTGTSSDVGGYNWVSWYQQHPGKAPKLMIDEVSKRPSGVPDRFSGSKSGNTASLTVSGLQSEDEAYYYCSSYAGSNNLVFGGGTKLTVL
B10: BD55-5879 (protein)
chain 1: QVQLQQWGAGLLKPSETLSLTCAVSGGSLGGSLSSYDWSWIRQPPGMGLEWIGKINHRGGVKYNPSLKSRVTMSVDTSKNQFSLKLSSVTAADTAVYYCARHSGYDPLFDYWGQGTLVTVSS
chain 2: DIQMTQSPSTLSASVGGRVTVTCRASQSIGTWLAWYQQKPGKAPNLLIYKASILESGVPSRFSGSGSGTQFTLTISSLQPDDFATYYCQQYNSDSPYTFGQGTKVEIK
B11: BD55-5903 (protein)
chain 1: QVHLVQSGAEVKKPGSSVKVSCKASGDTFSSYGLNWVRQAPGQGLEWMGRIIPIFDRTNYAQNFQGRVTITADKSTNTAYMELSSLRSEDTALYYCARDGSCDFWSGYCRNDTFDIWGQGTMVTVSS
chain 2: DIQMTQSPSAMSASVGDRVTITCRASQGINNYLVWFQQKPGKVPKRLIYAASSLQSGVPSRFSGSGSGTEFTLTISSLQPEDFATYYCLHHNSYPWTFGQGTKVEIK
B12: BD55-5874 (protein)
chain 1: EVQLVESGGGLVQPGESLRLSCAASGFPVNRYYISWVRQAPGKTLEWVSVIYRDDSTFSADSVKGRFTISRHSSKNTVYLHMSSLRAEDTAVYYCAGGRHTQVEYDFLTGYGLGAFDIWGQGTMVTVS
chain 2: DIQMTQSPSTLSASVGDRVTITCRASQSISNWLAWYQQKPGKAPNLLIYKASSLESGVPSRFSGSGSGTEFTLTISSLQPDDFATYYCQQYNSYQWTFGQGTKVEIK

molecular target: SARS-CoV-2 Omicron BA.1 spike pseudovirus; assay: pseudovirus neutralization IC50; higher = weaker neutralization
Protocol: (§1)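 Single-round VSV luciferase pseudovirus mixed with antibody dilutions for 1 h and put on Huh-7 cells for about a day; IC50 from the dose curve.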

Binder	pseudovirus neutralization IC50 [µg/mL]
B1	> 10
B2	> 10
B3	> 10
B4	> 10
B5	> 10
B6	> 10
B7	> 10
B8	> 10
B9	> 10
B10	> 10
B11	0.0213
B12	> 10

molecular target: SARS-CoV-2 Omicron BA.2 spike pseudovirus; assay: as above
Protocol: as §1

Binder	pseudovirus neutralization IC50 [µg/mL]
B1	> 10
B2	> 10
B3	> 10
B4	> 10
B5	> 10
B6	> 10
B7	> 10
B8	> 10
B9	> 10
B10	> 10
B11	0.0238
B12	> 10

molecular target: SARS-CoV-2 Omicron BA.2.75 spike pseudovirus; assay: as above
Protocol: as §1

Binder	pseudovirus neutralization IC50 [µg/mL]
B1	> 10
B2	> 10
B3	> 10
B4	> 10
B5	> 10
B6	> 10
B7	> 10
B8	> 10
B9	> 10
B10	> 10
B11	0.0201
B12	> 10

molecular target: SARS-CoV-2 Omicron BA.5 spike pseudovirus; assay: as above
Protocol: as §1

Binder	pseudovirus neutralization IC50 [µg/mL]
B1	> 10
B2	> 10
B3	> 10
B4	> 10
B5	> 10
B6	> 10
B7	> 10
B8	> 10
B9	> 10
B10	> 10
B11	> 10
B12	> 10

molecular target: SARS-CoV-2 Omicron BQ.1.1 spike pseudovirus; assay: as above
Protocol: as §1

Binder	pseudovirus neutralization IC50 [µg/mL]
B1	> 10
B2	> 10
B3	> 10
B4	> 10
B5	> 10
B6	> 10
B7	> 10
B8	> 10
B9	> 10
B10	> 10
B11	> 10
B12	> 10

molecular target: SARS-CoV-2 Omicron XBB spike pseudovirus; assay: as above
Protocol: as §1

Binder	pseudovirus neutralization IC50 [µg/mL]
B1	> 10
B2	> 10
B3	> 10
B4	> 10
B5	> 10
B6	> 10
B7	> 10
B8	> 10
B9	> 10
B10	> 10
B11	> 10
B12	> 10

molecular target: SARS-CoV-2 early D614G spike pseudovirus; assay: as above
Protocol: as §1

Binder	pseudovirus neutralization IC50 [µg/mL]
B1	0.001
B2	> 10
B3	0.0228
B4	> 10
B5	> 10
B6	> 10
B7	0.00529
B8	> 10
B9	0.572
B10	1.8
B11	0.00333
B12	0.0641
